# Only a part is listed here, and it is no random draw. Active and inactive are the calls of the source. No stated cut-off is given here; in the data, active means inhibition above about 12%; inactive means the rest.
# Target: Replicase polyprotein 1ab (Severe acute respiratory syndrome coronavirus) (UniProt P0C6X7)
# Assay: blockers of SARS 3CLpro peptide cleavage – biochemical, quenched FRET, primary screen (AID 1706)
# Settings: recombinant SARS-CoV 3CLpro, at 6 µM, active compounds read high
row,SMILES,inhibition
1,Cc1cc(C)cc(OP(C)(=O)Nc2cccc(C(F)(F)F)c2)c1 (stereo not drawn),inactive: -3.25%
2,COc1ccccc1OP(C)(=O)Nc1ccc(C)c(C)c1 (stereo not drawn),inactive: 1.44%
3,COc1ccc(OP(C)(=O)Nc2ccccc2Br)cc1 (stereo not drawn),inactive: -2.88%
4,Cc1nc2ccc3ccccc3c2o1.O=[N+]([O-])c1cc([N+](=O)[O-])c(O)c([N+](=O)[O-])c1,inactive: -4.46%
5,CP(=O)(OCCOc1ccccc1)OCCOc1ccccc1,inactive: -2.65%
6,CP(=O)(Nc1ccc(Cl)cc1Cl)Oc1ccccc1 (stereo not drawn),inactive: 1.67%
7,COc1ccccc1OP(C)(=O)Nc1ccc(Br)cc1 (stereo not drawn),inactive: 2.56%
8,COc1ccc(OP(C)(=O)Nc2ccccn2)cc1 (stereo not drawn),inactive: 3.34%
9,CN(C)CCOC(=O)C(O)(c1ccccc1)C1CCCC1 (stereo not drawn),inactive: 0.91%
10,O=[N+]([O-])c1cc([N+](=O)[O-])c(Nc2ccccn2)c([N+](=O)[O-])c1,inactive: 4.7%
11,Cc1c(NP(C)(=O)Oc2ccc(C(C)C)cc2)c(=O)n(-c2ccccc2)n1C (stereo not drawn),inactive: 3.07%
12,CP(=O)(Nc1ccccn1)Oc1ccccc1 (stereo not drawn),inactive: 3.07%
13,COc1ccccc1OP(C)(=O)Nc1ccc(C)cc1C (stereo not drawn),inactive: -4.76%
14,CCc1ccc(OP(C)(=O)O)cc1,inactive: -3.27%
15,CCN(CC)CC(O)COC(=O)C(O)(c1ccccc1)C1CCCCC1 (stereo not drawn),inactive: -1.47%
16,COc1ccc(OP(C)(=O)Nc2ccc(Br)cc2)cc1 (stereo not drawn),inactive: 0.19%
17,COc1ccccc1OP(C)(=O)Nc1c(C)n(C)n(-c2ccccc2)c1=O (stereo not drawn),inactive: -7.09%
18,O=C(OCCCN1CCCC1)C(O)(c1ccccc1)C1CCCCC1 (stereo not drawn),inactive: 7.34%
19,CP(=O)(Oc1ccccc1)N1CCOC1=O (stereo not drawn),inactive: -1.84%
20,CCc1ccc(OP(C)(=O)Nc2cccnc2)cc1 (stereo not drawn),inactive: 5.06%
21,CC(C)(C)c1ccc(OP(C)(=O)O)cc1,inactive: -1.11%

row,SMILES,inhibition
1,COc1ccccc1OP(C)(=O)Nc1ccccc1Br (stereo not drawn),inactive: 3.89%
2,CP(=O)(Nc1ccc(Cl)cc1)Oc1ccc(F)cc1 (stereo not drawn),inactive: 4.01%
3,CN(C)C(=O)c1c([N+](=O)[O-])cc([N+](=O)[O-])cc1[N+](=O)[O-],inactive: 3.92%
4,CCOC(=O)c1ccc(NP(C)(=O)Oc2ccc(Cl)cc2)cc1 (stereo not drawn),inactive: 3.43%
5,CP(=O)(OC12CC3CC(CC(C3)C1)C2)OC12CC3CC(CC(C3)C1)C2,inactive: -3.35%
6,COc1ccc(OP(C)(=O)Nc2cccc(Br)c2)cc1 (stereo not drawn),inactive: 0.23%
7,CN(C)CCOC(=O)C(O)(c1ccccc1)C1CCCCC1 (stereo not drawn),inactive: -0.56%
8,COc1ccc(NP(C)(=O)Oc2ccccc2OC)cc1 (stereo not drawn),inactive: -0.59%
9,O=[N+]([O-])c1ccc(OP2(=O)COCCO2)cc1 (stereo not drawn),inactive: -1.99%
10,O=[N+]([O-])c1cc([N+](=O)[O-])c(NCC2CCS(=O)(=O)C2)c([N+](=O)[O-])c1 (stereo not drawn),inactive: 0.31%
11,Cc1cc(-c2cccc3ccccc23)c(C)cn1.O=[N+]([O-])c1cc([N+](=O)[O-])c(O)c([N+](=O)[O-])c1,inactive: 7.59%
12,CP(=O)(Nc1ccc(SC(F)(F)F)cc1)Oc1ccc(F)cc1 (stereo not drawn),inactive: -0.11%
13,CCOP(C)(=S)SCC(=O)NC(C)(CC)C(=O)O (stereo not drawn),inactive: -9.35%
14,CP(=O)(Nc1ccc2c(c1)OCCO2)Oc1ccccc1 (stereo not drawn),inactive: 1.13%
15,Cc1ccccc1NP(C)(=O)Nc1ccccc1C,inactive: 1.47%
16,CP(=O)(Nc1ccccc1F)Oc1ccccc1 (stereo not drawn),inactive: 3.57%
17,CC(C)c1ccc(OP(C)(=O)Nc2ccc(SC(F)(F)F)cc2)cc1 (stereo not drawn),inactive: 2.86%
18,O=C(OC1CN2CCC1CC2)c1ccc([N+](=O)[O-])cc1 (stereo not drawn),inactive: -0.48%
19,CCOC(=O)c1ccc(NP(C)(=O)Oc2ccc(F)cc2)cc1 (stereo not drawn),inactive: -7.91%
20,COc1ccc(OP(C)(=O)Nc2ccc(SC(F)(F)F)cc2)cc1 (stereo not drawn),inactive: 5.63%
21,CCN(CC)CCCOC(=O)C(O)(c1ccccc1)C1CCCCC1 (stereo not drawn),inactive: -0.48%

row,SMILES,inhibition
1,CP(=O)(Nc1ccccc1)Oc1ccc(F)cc1 (stereo not drawn),inactive: -4.06%
2,O=[N+]([O-])c1cc([N+](=O)[O-])c(OC2CCCCC2O)c([N+](=O)[O-])c1 (stereo not drawn),inactive: 3.7%
3,CCCCCOc1ccc(NP(C)(=O)Oc2ccc(Cl)cc2Cl)cc1 (stereo not drawn),inactive: 3.42%
4,O=C(O)c1cccc(Nc2c([N+](=O)[O-])cc([N+](=O)[O-])cc2[N+](=O)[O-])c1,inactive: -0.7%
5,CC1=NCCc2c1[nH]c1ccccc21.O=[N+]([O-])c1cc([N+](=O)[O-])c(O)c([N+](=O)[O-])c1,inactive: -5.41%
6,COc1ccccc1OP(C)(=O)Nc1cccc(Br)c1 (stereo not drawn),inactive: -2.68%
7,CCOC(=O)c1ccc(NP(C)(=O)Oc2cc(C)cc(C)c2)cc1 (stereo not drawn),inactive: 5.48%
8,Cc1cc(C)cc(OP(C)(=O)Nc2ccc(C)cc2C)c1 (stereo not drawn),inactive: -2.27%
9,Cc1ccc(C)c(NP(C)(=O)Oc2ccccc2)c1 (stereo not drawn),inactive: -0.35%
10,CP(=O)(Nc1cccc(Br)c1)Oc1ccccc1 (stereo not drawn),inactive: 0.79%
11,Cc1cc(C)cc(OP(C)(=O)Nc2ccccn2)c1 (stereo not drawn),inactive: 2.1%
12,O=[N+]([O-])c1cc([N+](=O)[O-])c(-n2nnc3ccccc32)c([N+](=O)[O-])c1,inactive: 2.73%
13,Cc1nc2ccc3ccccc3c2s1.O=[N+]([O-])c1cc([N+](=O)[O-])c(O)c([N+](=O)[O-])c1,inactive: 4.55%
14,O=[N+]([O-])c1cc([N+](=O)[O-])c(Nc2nnnn2CCO)c([N+](=O)[O-])c1,inactive: -1.88%
15,CCOC(=O)C(CC)C1=NC(C)(C)Cc2ccccc21.O=[N+]([O-])c1cc([N+](=O)[O-])c(O)c([N+](=O)[O-])c1 (stereo not drawn),inactive: -0.23%
16,COc1ccccc1OP(C)(=O)Nc1c(C)cccc1C (stereo not drawn),inactive: -4.44%
17,CN1CCCCC1COC(=O)C1(O)c2ccccc2CCc2ccccc21 (stereo not drawn),inactive: 0.35%
18,CP(=O)(Nc1ccc(SC(F)(F)F)cc1)Oc1ccccc1 (stereo not drawn),inactive: -5.73%
19,CCCOc1ccc(NP(C)(=O)Oc2ccc(Cl)cc2)cc1 (stereo not drawn),inactive: 4.65%
20,CP(=S)(Nn1cnnc1)Oc1ccccc1 (stereo not drawn),inactive: 2.45%
21,CP(=O)(Nc1ccccc1Br)Oc1ccccc1 (stereo not drawn),inactive: -2.75%

row,SMILES,inhibition
1,COc1ccccc1OP(C)(=O)Nc1ccccc1 (stereo not drawn),inactive: -3.28%
2,Cc1cccc(C)c1OP(C)(=O)Nc1ccc(SC(F)(F)F)cc1 (stereo not drawn),inactive: 5.26%
3,CP(=O)(Nc1ccc(SC(F)(F)F)cc1)Oc1ccc(Cl)cc1 (stereo not drawn),inactive: 3.65%
4,CP(=O)(Oc1ccccc1)OC(c1ccccc1)C(F)(F)F (stereo not drawn),inactive: 2.01%
5,CCc1ccc(OP(C)(=O)N2CCN(c3ccc([N+](=O)[O-])cc3)CC2)cc1 (stereo not drawn),inactive: 3.47%
6,CP(=O)(NC(=O)Nc1ccccc1)Oc1ccccc1 (stereo not drawn),inactive: -0.37%
7,Cc1cc(C)cc(OP(C)(=O)Nc2ccc(SC(F)(F)F)cc2)c1 (stereo not drawn),inactive: 1.01%
8,CCOC(=O)c1ccc(NP(C)(=O)Oc2ccc(OC)cc2)cc1 (stereo not drawn),inactive: 7.93%
9,CCOP(C)(=S)SCC(=O)NC(C)C(=O)O (stereo not drawn),inactive: -1.33%
10,CP(=O)(Nc1ccccn1)Oc1ccc(Cl)cc1 (stereo not drawn),inactive: 2.47%
11,CCN(CC)CCCOC(=O)C(O)(c1ccccc1)c1ccccc1,inactive: -3.73%
12,O=[N+]([O-])c1ccc2c(c1)C=Nc1ccccc1O2,inactive: 6.77%
13,CC(C)(C)c1ccc(OP(C)(=O)Nc2ccc(SC(F)(F)F)cc2)cc1 (stereo not drawn),inactive: -4.97%
14,Cc1cccc(C)c1OP(C)(N)=O (stereo not drawn),inactive: 1.28%
15,COc1ccccc1OP(C)(=O)Nc1ccc(C)cc1 (stereo not drawn),inactive: -3.13%
16,Cc1ccc(NP(C)(=O)Oc2ccccc2)c(C)c1 (stereo not drawn),inactive: 1.31%
17,CCOC(=O)c1ccc(NP(C)(=O)Oc2ccccc2)cc1 (stereo not drawn),inactive: -4.4%
18,Cc1cc(C)cc(OP(C)(N)=O)c1 (stereo not drawn),inactive: -2.95%
19,COc1ccccc1OP(C)(=O)Nc1cc(Cl)ccc1C (stereo not drawn),inactive: -4.87%
20,COc1ccc(OP(C)(=O)Nc2cccc(F)c2)cc1 (stereo not drawn),inactive: 1.39%

# Source: PubChem BioAssay AID1706 (The Scripps Research Institute Molecular Screening Center, 2009)
